In assay [1] the test system is CD8+ T cells. Conditions: cited from earlier work; for Restriction: T cell type (CD4 or CD8) recognizing the SARS-CoV-2 epitope.
In assay [2] the test system is CD8+ T cells. Put plainly: Meta-analysis of published SARS-CoV-2 CD8 T cell epitope data curated in the IEDB (25 studies). Conditions: SARS-CoV-2-derived CD8 epitopes; dominant = recognized by 3 or more donors/different studies. The class given is cell-based, human.

Read-outs that look alike come from different tables or passages of the source.

As to 1046 (LEIPRRNVATL) [compound 1046], the Restriction entry with CD8+ T cells [1] is “CD8”.
For 3028 (SALWEIQQVV) [compound 3028], in the assay on CD8+ T cells [1] (CD8RE megapool peptides (non-spike SARS-CoV-2 antigens), dominant epitope Yes/No), the Dominant entry is on record as “Yes (more dominant epitopes are defined by being recognized by 3 or more donors/different studies)”.
As to 1793 (SALWEIQQVV) [compound 1793], in the assay with CD8+ T cells [1] (CD8R (D) megapool epitopes, dominant = recognized by 3 or more donors/different studies), the Dominant result is “Yes (more dominant epitopes are defined by being recognized by 3 or more donors/different studies)”.
Regarding 904 (SALWEIQQVV) [compound 904], the Dominant result in the assay with CD8+ T cells [2] is recorded as “Yes (more dominant epitopes are defined by being recognized by 3 or more donors/different studies)”. Further, the Restriction result in the assay on CD8+ T cells [1] is “CD8”.
